Measurements as given in patent publication US20070219243A1, “Method for improving the pharmacokinetics of HIV integrase inhibitors” (priority 2005, published 2007).

Conditions: in vivo

In the case of “emtricitabine/tenofovir disoproxil fumarate [FTC/TDF]”, the “Drug-drug interaction upon co-administration” value is reported as “no clinically relevant drug-drug interaction”.
